{"source": "PubChem BioAssay AID624099 (ICCB-Longwood, 2012)", "screen": "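Host factors E2 relies on to silence an HPV18 LCR reporter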 (primary screen)", "system": "human C33A cervical carcinoma cells (HPV-negative) stably expressing BPV1 E2 and an HPV18 LCR luciferase reporter", "knock-down reagent": "siRNA pool against human genes, 40 nM", "time to read-out": "72 h", "measurement": "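HPV18 LCR reporter light per well, converted to plate-wise z-scores that exclude control wells, and averaged over triplicate plates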", "direction": "mean z-score and z-score: higher = stronger reporter signal, weaker E2 silencing", "active means": "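Mean z ≥ 2 together with z ≥ 2 in two or more of the three replicates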", "note": "In all, the deposit lists about 21,000 reagents; this is an unselected part. Of all reagents, 497 (2.4%) got an active call. 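Higher z means weaker E2 silencing; only reporter increases were scored, and knock-downs that hurt cell survival may mask genuine repressor factors.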 Unmarked entries are inactive."}
{"gene knocked down": "H3C1", "mean z-score": -1.32, "z-score, replicate A": -1.33, "z-score, replicate B": -1.31, "z-score, replicate C": -1.32}
{"gene knocked down": "C2CD2L", "mean z-score": -0.77, "z-score, replicate A": -0.73, "z-score, replicate B": -0.67, "z-score, replicate C": -0.91}
{"gene knocked down": "ZNF334", "mean z-score": 0.89, "z-score, replicate A": 0.21, "z-score, replicate B": 0.66, "z-score, replicate C": 1.81}
{"gene knocked down": "LINC00944", "mean z-score": -0.49, "z-score, replicate A": -0.41, "z-score, replicate B": -0.34, "z-score, replicate C": -0.72}
{"gene knocked down": "CDRT15L2", "mean z-score": -0.07, "z-score, replicate A": 0.18, "z-score, replicate B": -0.51, "z-score, replicate C": 0.11}
{"gene knocked down": "SMARCD2", "mean z-score": -0.9, "z-score, replicate A": -0.86, "z-score, replicate B": -0.87, "z-score, replicate C": -0.96}
{"gene knocked down": "MEF2D", "mean z-score": -0.56, "z-score, replicate A": -0.42, "z-score, replicate B": -0.65, "z-score, replicate C": -0.62}
{"gene knocked down": "RAB42", "mean z-score": 1.63, "z-score, replicate A": 2.06, "z-score, replicate B": 1.42, "z-score, replicate C": 1.42}
{"gene knocked down": "TUBA1A", "mean z-score": -0.07, "z-score, replicate A": 0.08, "z-score, replicate B": 0, "z-score, replicate C": -0.27}
{"gene knocked down": "HINFP", "mean z-score": -1.23, "z-score, replicate A": -0.98, "z-score, replicate B": -1.24, "z-score, replicate C": -1.47}
{"gene knocked down": "CPT1A", "mean z-score": 0.3, "z-score, replicate A": -0.32, "z-score, replicate B": 0.52, "z-score, replicate C": 0.7}

Sorted by “z-score, replicate B” (low to high): 2 of the entries above.
{"gene knocked down": "C2CD2L", "mean z-score": -0.77, "z-score, replicate A": -0.73, "z-score, replicate B": -0.67, "z-score, replicate C": -0.91}
{"gene knocked down": "ZNF334", "mean z-score": 0.89, "z-score, replicate A": 0.21, "z-score, replicate B": 0.66, "z-score, replicate C": 1.81}

Next entries follow.
{"gene knocked down": "LOC340913 (retired record)", "mean z-score": -0.24, "z-score, replicate A": -0.29, "z-score, replicate B": -0.34, "z-score, replicate C": -0.08}
{"gene knocked down": "FBXW9", "mean z-score": 1.22, "z-score, replicate A": 1.75, "z-score, replicate B": 0.92, "z-score, replicate C": 0.98}
{"gene knocked down": "CFTR", "mean z-score": 0.43, "z-score, replicate A": 0.14, "z-score, replicate B": 0.63, "z-score, replicate C": 0.52}
{"gene knocked down": "C9orf40", "mean z-score": 0.39, "z-score, replicate A": 0.43, "z-score, replicate B": 0.11, "z-score, replicate C": 0.64}
{"gene knocked down": "FKBP7", "mean z-score": -0.26, "z-score, replicate A": -0.37, "z-score, replicate B": -0.28, "z-score, replicate C": -0.14}
{"gene knocked down": "NGRNP1", "mean z-score": 0.52, "z-score, replicate A": 0.59, "z-score, replicate B": 0.66, "z-score, replicate C": 0.31}
{"gene knocked down": "NBEA", "mean z-score": -1.14, "z-score, replicate A": -1.71, "z-score, replicate B": -0.69, "z-score, replicate C": -1.01}
{"gene knocked down": "B4GALT5", "mean z-score": -1.03, "z-score, replicate A": -1.06, "z-score, replicate B": -1.08, "z-score, replicate C": -0.95}
{"gene knocked down": "AGFG2", "mean z-score": -0.47, "z-score, replicate A": -0.59, "z-score, replicate B": -0.01, "z-score, replicate C": -0.79}
{"gene knocked down": "TAF10", "mean z-score": -1.47, "z-score, replicate A": -1.48, "z-score, replicate B": -1.44, "z-score, replicate C": -1.5}
